Experimental data: PubChem BioAssay AID624099 (ICCB-Longwood, 2012)

- Aim: 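Human genes that papillomavirus E2 requires to repress the HPV18 LCR promoter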 (primary screen)
- Cells: human C33A cervical carcinoma cells (HPV-negative) stably expressing BPV1 E2 and an HPV18 LCR luciferase reporter
- Reagent: siRNA pool against human genes, 40 nM
- Timing: 72 h
- Read-out: 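HPV18 LCR reporter light per well, converted to plate-wise z-scores that exclude control wells, and averaged over triplicate plates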
- Direction: mean z-score and z-score: higher = stronger reporter signal, weaker E2 silencing
- Hit rule: 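Mean z ≥ 2 together with z ≥ 2 in two or more of the three replicates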
This is a random part of about 21,000 reagents tested. 497 of them (2.4%) were called active. 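Higher z means weaker E2 silencing; only reporter increases were scored, and knock-downs that hurt cell survival may mask genuine repressor factors.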 Unmarked entries are inactive. Reagent sequences are not shown.

no.	gene knocked down	mean z-score	z-score, replicate A	z-score, replicate B	z-score, replicate C
1	INTS13 (GeneID 55726)	0.85	0.53	1.16	
2	UBE2D1 (GeneID 7321)	0.57	0.43	0.91	0.38
3	HLA-E (GeneID 3133)	-0.54	-0.58	-0.46	-0.58
4	ODF2L (GeneID 57489)	-0.83	-0.92	-0.75	-0.82
5	PTCH1 (GeneID 5727)	-0.47	-0.57	-0.52	-0.31
6	XAGE3 (GeneID 170626)	0.22	0.56	-0.45	0.53
7	SIDT2 (GeneID 51092)	-0.46	-0.63	0.07	-0.82
8	PCDHB2 (GeneID 56133)	0.05	0.12	-0.14	0.17
9	GYG2 (GeneID 8908)	1.14	1.3	1.17	0.94
10	IFNK (GeneID 56832)	-1.1	-1.3	-0.83	-1.17
11	MPZL3 (GeneID 196264)	-1.68	-1.88	-1.44	-1.71
12	CLINT1 (GeneID 9685)	-2.6	-2.67	-2.5	-2.64
13	FLJ46126 (retired record) (GeneID 400597)	-1.09	-0.92	-1.23	-1.12
14	CXXC4 (GeneID 80319)	-0.24	-0.21	-0.51	-0.01
15	NUCB2 (GeneID 4925)	-0.01	-0.19	0.21	-0.05
16	LDHD (GeneID 197257)	-0.56	-0.26	-0.29	-1.12
17	ZNF652 (GeneID 22834)	-0.79	-0.74	-0.9	-0.73
18	H2BC15 (GeneID 8341)	-1.33	-1.55	-1.42	-1.03
19	CHAC1 (GeneID 79094)	-0.58	-0.4	-0.71	-0.64
20	NT5C1A (GeneID 84618)	-0.06	-0.3	0.12	0
21	SLC6A3 (GeneID 6531)	-0.24	-0.44	-0.32	0.06
22	CASP8 (GeneID 841)	-1.13	-1.06	-1.3	-1.04
23	GOLGA8IP (GeneID 283796)	-0.71	-0.68	-0.56	-0.89
24	LOC401054 (retired record) (GeneID 401054)	0.24	0.72	0.1	-0.09
25	GRAMD2A (GeneID 196996)	-0.7	-0.87	-0.9	-0.32
26	TAB1 (GeneID 10454)	1.41	1.29	1.45	1.49
27	EYA2 (GeneID 2139)	0.32	0.14	0.26	0.56
28	SLC25A53 (GeneID 401612)	-0.15	-0.41	0.04	-0.06
29	LOC389441 (retired record) (GeneID 389441)	-0.04	-0.14	-0.1	0.11
30	CNTN2 (GeneID 6900)	-0.44	-0.54	-0.24	-0.52
31	DAOA-AS1 (GeneID 282706)	0.92	0.83	1.19	0.73
32	LGALS12 (GeneID 85329)	0.97	1.3	0.69	0.92
33	FATE1 (GeneID 89885)	-0.97	-1.05	-1.13	-0.73
34	FAM78A (GeneID 286336)	0.99	0.78	1.08	1.11
35	BPHL (GeneID 670)	0.1	0.01	0.02	0.28
36	SFXN1 (GeneID 94081)	0.22	0.02	0.34	0.3
37	FLJ46230 (retired record) (GeneID 400679)	-0.5	-0.67	-0.51	-0.33
38	ATP5ME (GeneID 521)	1.07	0.88	1.08	1.25
39	MRAP (GeneID 56246)	1.49	1.25	1.66	1.57
40	UBE3D (GeneID 90025)	-0.03	-0.24	-0.02	0.17
41	PDCD2L (GeneID 84306)	0.21	0.03	0.3	0.32
42	CASP16P (GeneID 197350)	-0.89	-0.79	-0.72	-1.16
43	LINC01785 (GeneID 374890)	-0.94	-1.04	-1.11	-0.66
44	OR7E91P (GeneID 79315)	0.53	0.52	0.41	0.66
45	SEL1L (GeneID 6400)	-0.58	-0.42	-0.61	-0.73
46	MRPL4 (GeneID 51073)	1.36	1.41	1.56	1.12
47	IFNB1 (GeneID 3456)	1.03	1.02	1.09	0.99
48	ATMIN (GeneID 23300)	-0.48	-0.71	-0.44	-0.29
49	NAB1 (GeneID 4664)	-1.79	-1.84	-1.74	-1.78
50	TMEM95 (GeneID 339168)	1.55	1.82	1.26	1.58
51	UBE2E3 (GeneID 10477)	0.42	0.5	0.25	0.52
52	NKIRAS2 (GeneID 28511)	-0.71	-0.6	-0.88	-0.65
53	PCDH1 (GeneID 5097)	-1.31	-1.2	-1.35	-1.37
54	CLIP1 (GeneID 6249)	-0.53	-0.33	-0.39	-0.88
55	LOXL3 (GeneID 84695)	2.43 (active)	2.54	2.15	2.59
56	ZNF670 (GeneID 93474)	-0.45	-0.35	-0.22	-0.78
57	CPN2 (GeneID 1370)	-1.6	-1.4	-1.73	-1.65
58	PPP1R9A (GeneID 55607)	0.83	0.78	1.03	0.68
59	OSTCP1 (GeneID 202459)	-0.48	-0.36	-0.52	-0.55
60	NCOA3 (GeneID 8202)	1.25	1.05	1.43	1.27
61	ANGPTL7 (GeneID 10218)	0.77	0.54	0.88	0.88
62	LOC400985 (retired record) (GeneID 400985)	0.26	0.44	0.08	0.26
63	RRP9 (GeneID 9136)	-1.08	-1.03	-1.14	-1.06
64	KIAA0492 (retired record) (GeneID 57238)	-0.07	0	0.03	-0.24
65	MAF1 (GeneID 84232)	0.23	-0.04	0.21	0.53
66	TMCO2 (GeneID 127391)	-1.82	-1.65	-1.97	-1.83
67	LOC388467 (retired record) (GeneID 388467)	1.42	1.26	1.59	1.41
68	FAXC (GeneID 84553)	0.69	0.59	0.8	0.67
69	PECAM1 (GeneID 5175)	0.28	0.47	0.24	0.13
70	ZNF883 (GeneID 169834)	-0.07	-0.01	-0.13	-0.08
71	TSKU (GeneID 25987)	-1.72	-1.64	-1.71	-1.82
72	RBM45 (GeneID 129831)	0.19	0.17	0.39	0.02
73	FBXL8 (GeneID 55336)	0.59	0.39	0.59	0.78
